Data source: PubChem BioAssay AID624099 (ICCB-Longwood, 2012)
The deposit covers about 21,000 reagents; shown is a random part of them. 497 of all reagents (2.4%) were called active. 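Higher z means weaker E2 silencing; only reporter increases were scored, and knock-downs that hurt cell survival may mask genuine repressor factors.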 No sequences are given here.

Purpose: 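Human genes that papillomavirus E2 requires to repress the HPV18 LCR promoter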 (primary screen)
Cell system: human C33A cervical carcinoma cells (HPV-negative) stably expressing BPV1 E2 and an HPV18 LCR luciferase reporter
Reagent: siRNA pool against human genes, 40 nM
Time to read-out: 72 h
Read-out: 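HPV18 LCR reporter light per well, converted to plate-wise z-scores that exclude control wells, and averaged over triplicate plates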
Scale: mean z-score and z-score: higher = stronger reporter signal, weaker E2 silencing
Call rule: 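Mean z ≥ 2 together with z ≥ 2 in two or more of the three replicates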

With knock-down of DYNLL2 (dynein light chain LC8-type 2) the results were mean z-score 0.58; z-score, replicate A = 0.68; z-score, replicate B = 0.34; z-score, replicate C = 0.73; inactive.
KIR2DS3 showed mean z-score 0.83; z-score, replicate A = 1.23; z-score, replicate B = 0.85; z-score, replicate C = 0.41; inactive.
Knock-down of LENG1 (leukocyte receptor cluster member 1) gave: mean z-score 1.86; z-score, replicate A = 1.81; z-score, replicate B = 1.97; z-score, replicate C = 1.8; inactive.
LRRK1 (leucine rich repeat kinase 1) gave mean z-score -0.07; z-score, replicate A = -0.09; z-score, replicate B = -0.18; z-score, replicate C = 0.05; inactive.
ASB17 (ankyrin repeat and SOCS box containing 17) showed mean z-score -0.02; z-score, replicate A = -0.05; z-score, replicate B = -0.1; z-score, replicate C = 0.08; inactive.
For SLC16A14, the values are mean z-score 0.21; z-score, replicate A = 0.09; z-score, replicate B = -0.13; z-score, replicate C = 0.68; inactive.
Against PRAMEF13 (PRAME family member 13), the values are mean z-score 1.33; z-score, replicate A = 1.65; z-score, replicate B = 0.95; z-score, replicate C = 1.37; inactive.
Silencing of SLC30A4 gave: mean z-score 0.1; z-score, replicate A = 0.01; z-score, replicate B = 0.28; z-score, replicate C = 0.02; inactive.
Depletion of LY6G5B (lymphocyte antigen 6 family member G5B) came out at: mean z-score 0.21; z-score, replicate A = 0.38; z-score, replicate B = 0.07; z-score, replicate C = 0.18; inactive.
Depletion of COPS7A (COP9 signalosome subunit 7A) came out at: mean z-score 0.37; z-score, replicate A = 0.33; z-score, replicate B = 0.2; z-score, replicate C = 0.57; inactive.
Depletion of TUBBP1 (tubulin beta pseudogene 1) came out at: mean z-score -2.21; z-score, replicate A = -2.29; z-score, replicate B = -2.05; z-score, replicate C = -2.28; inactive.
CEP112 (centrosomal protein 112) gave mean z-score 0.2; z-score, replicate A = 0.54; z-score, replicate B = 0.19; z-score, replicate C = -0.12; inactive.
MZF1 (myeloid zinc finger 1) scored mean z-score 1.19; z-score, replicate A = 0.71; z-score, replicate B = 1.28; z-score, replicate C = 1.58; inactive.
TREX1 (three prime repair exonuclease 1) showed mean z-score 1.03; z-score, replicate A = 1.2; z-score, replicate B = 0.94; z-score, replicate C = 0.96; inactive.

Entries above whose target name begins with L or l (3):
LENG1 (leukocyte receptor cluster member 1) | mean z-score: 1.86; z-score, replicate A: 1.81; z-score, replicate B: 1.97; z-score, replicate C: 1.8; call: inactive
LRRK1 (leucine rich repeat kinase 1) | mean z-score: -0.07; z-score, replicate A: -0.09; z-score, replicate B: -0.18; z-score, replicate C: 0.05; call: inactive
LY6G5B (lymphocyte antigen 6 family member G5B) | mean z-score: 0.21; z-score, replicate A: 0.38; z-score, replicate B: 0.07; z-score, replicate C: 0.18; call: inactive
